# According to paper PMC9637222 (2022):
# B1: SipB (tag-free, purified) (natural protein)
# chain: MVNDASSISRSGYTQNPRLAEAAFEGVRKNTDFLKAADKAFKDVVATKAGDLKAGTKSGESAINTVGLKPPTDAAREKLSSEGQLTLLLGKLMTLLGDVSLSQLESRLAVWQAMIESQKEMGIQVSKEFQTALGEAQEATDLYEASIKKTDTAKSVYDAATKKLTQAQNKLQSLDPADPGYAQAEAAVEQAGKEATEAKEALDKATDATVKAGTDAKAKAEKADNILTKFQGTANAASQNQVSQGEQDNLSNVARLTMLMAMFIEIVGKNTEESLQNDLALFNALQEGRQAEMEKKSAEFQEETRKAEETNRIMGCIGKVLGALLTIVSVVAAVFTGGASLALAAVGLAVMVADEIVKAATGVSFIQQALNPIMEHVLKPLMELIGKAITKALEGLGVDKKTAEMAGSIVGAIVAAIAMVAVIVVVAVVGKGAAAKLGNALSKMMGETIKKLVPNVLKQLAQNGSKLFTQGMQRITSGLGNVGSKMGLQTNALSKELVGNTLNKVALGMEVTNTAAQSAGGVAEGVFIKNASEALADFMLARFAMDQIQQWLKQSVEIFGENQKVTAELQKAMSSAVQQNADASRFILRQSRA
# B2: SipC (tag-free, purified) (natural protein)
# chain: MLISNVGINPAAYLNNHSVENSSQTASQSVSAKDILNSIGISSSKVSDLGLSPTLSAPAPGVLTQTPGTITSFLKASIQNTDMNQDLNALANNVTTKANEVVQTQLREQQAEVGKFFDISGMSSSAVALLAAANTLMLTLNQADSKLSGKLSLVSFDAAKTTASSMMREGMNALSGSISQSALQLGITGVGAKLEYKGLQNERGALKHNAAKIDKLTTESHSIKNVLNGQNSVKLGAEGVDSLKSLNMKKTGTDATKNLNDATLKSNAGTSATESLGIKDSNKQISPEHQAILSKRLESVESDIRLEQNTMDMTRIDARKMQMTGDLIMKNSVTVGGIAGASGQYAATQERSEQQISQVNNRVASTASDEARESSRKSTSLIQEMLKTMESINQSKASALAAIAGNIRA
# Tests used:
# [1] = biological target: SicA K27A (tag-free, purified) (S. Typhimurium, UniProt P69066 1-165, K27A); assay: ITC
# [2] = biological target: SicA N70A (tag-free, purified) (S. Typhimurium, UniProt P69066 1-165, N70A); assay: ITC
Binder,Kd [1],Kd [2]
B1,10 µM,0.57 µM
B2,,0.55 µM
